From patent US20230181723A1 (UNIVERSITY OF MARYLAND COLLEGE PARK, published 2023) come the findings set out here.

This test concerns the target T1, HA-tagged HCMV US11 (pEF6-US11, gene synthesised from HCMV AD169 DNA), expressed in HeLa cells (human cytomegalovirus (AD169 DNA as …)).
T1 construct: Full-length membrane glycoprotein expressed in transfected HeLa cells and tested in CHAPS lysates; also called HCMV glycoprotein US11; wild-type US11
Nature of the test: GST pull-down from HeLa^US11 lysate.

B1: GST-FcRn CT (GST fused to the cytoplasmic tail of human FcRn) (other)
chain: MSPILGYWKIKGLVQPTRLLLEYLEEKYEEHLYERDEGDKWRNKKFELGLEFPNLPYYIDGDVKLTQSMAIIRYIADKHNMLGGCPKERAEISMLEGAVLDIRYGVSRIAYSKDFETLKVDFLSKLPEMLKMFEDRLCHKTYLNGDHVTHPDFMLYDALDVVLYMDPMCLDAFPKLVCFKKRIEAIPQIDKYLKSSKYIAWPLQGWQATFGGGDHPPKRRMRSGLPAPWISLRGDDTGVLLPTPGEAQDADLKDVNVIPATA
notes: also called GST-tagged cytoplasmic tail (CT) FcRn; GST-FcRn CT protein
B1: the binding result was “no binding”.
